# Source: patent US20100120098
# Chains of the proteins cited; added tags and fusions are not shown. Lines headed by an entry give the natural chain unless they say otherwise; changes in a name come on top.
# UniProt Q46731: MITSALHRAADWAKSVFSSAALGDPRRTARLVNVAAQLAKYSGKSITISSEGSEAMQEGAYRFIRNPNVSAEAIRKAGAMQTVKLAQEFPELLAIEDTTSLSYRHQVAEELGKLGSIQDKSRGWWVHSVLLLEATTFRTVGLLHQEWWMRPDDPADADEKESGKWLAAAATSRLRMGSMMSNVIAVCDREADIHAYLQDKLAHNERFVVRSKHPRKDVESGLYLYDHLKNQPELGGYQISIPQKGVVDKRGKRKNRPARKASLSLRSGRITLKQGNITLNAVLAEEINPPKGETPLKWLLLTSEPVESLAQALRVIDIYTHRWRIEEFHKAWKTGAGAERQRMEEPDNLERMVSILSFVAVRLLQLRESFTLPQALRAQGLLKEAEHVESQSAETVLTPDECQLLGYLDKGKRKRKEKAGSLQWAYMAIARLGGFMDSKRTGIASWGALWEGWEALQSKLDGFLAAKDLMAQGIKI
# Target: EZ-Tn5 hyperactive Tn5 transposase (UniProt Q46731)
# Assay: enzyme reaction in vitro
# Details: purified recombinant protein, protein details: EPICENTRE Biotechnologies EZ-Tn5 Transposase
sequence,measurement,setting,value
GCCTCCCTCGCGCCATCAGAGATGTGTATAAGAGACAG / CTGTCTCTTATACACATCT [A-MEDS],activity on this sequence,"5'-phosphate on non-transferred strand, used mixed 1:1 with B-MEDS transposomes, Mg, 37 or 55 C",active
GCCTTGCCAGCCCGCTCAGATGTGTATAAGAGACAG / CTGTCTCTTATACACATCT [p454.1MEDS],activity on this sequence,"5'-phosphate on both strands, efficiency similar to pMEDS, no fragmentation without end or enzyme, 10 mM Mg acetate, 37 C",active
AGATGTGTATAAGAGACAG (double strand) [pMEDS],activity on this sequence,"5'-phosphate on both strands, fragmentation and tagging of T7 D111 DNA, good at 0.25 uM end, TA buffer, 10 mM Mg acetate, 37 C",active
AGATGTGTATAAGAGACAG (double strand) [MEDS],activity on this sequence,"5'-phosphate on non-transferred strand only, transposome fragmentation of target DNA, Mg, 37 or 55 C, improved by DMF",active
GCCTTGCCAGCCCGCTCAGAGATGTGTATAAGAGACAG / CTGTCTCTTATACACATCT [B-MEDS],activity on this sequence,"5'-phosphate on non-transferred strand, used mixed 1:1 with A-MEDS transposomes, Mg, 37 or 55 C",active

# The exact form of at least one protein or probe is not confirmed.
